Data as given in article PMC8940892, “Structures of pseudorabies virus capsids” (2022).

Experiments:
Assay in all cases: cryo-EM structure
[1] = molecular target: triplex protein Tri2 (VP23) of pseudorabies virus (pseudorabies virus (PRV), Bartha strain)
[2] = molecular target: portal protein pUL6 of pseudorabies virus (pseudorabies virus (PRV), Bartha strain)
[3] = molecular target: major capsid protein (MCP, VP5) of pseudorabies virus (pseudorabies virus (PRV), Bartha strain)
[4] = molecular target: major capsid protein (MCP, VP5) of pseudorabies virus (pseudorabies virus (PRV), Bartha strain); remark: listed apart in the source

triplex protein Tri2 (VP23) of pseudorabies virus (natural protein)
stoichiometry N [1]: 2

portal protein pUL6 of pseudorabies virus (natural protein)
stoichiometry N [2]: 12

major capsid protein (MCP, VP5) of pseudorabies virus (natural protein)
stoichiometry N [3]: 5
stoichiometry N [4]: 6

Where two headings read alike, the source gives them in different places.
